Measured values from several laboratories, pooled; numbers as filed in NIAID ChemDB.

Shared fields: tests in culture

Inhibition is in % at the dose shown (toxicity tests: loss of growth or viability).

smiles	organism	strain	changes	cells	read by	conditions	endpoint	dose	value
Oc1cccc(C=Nc2ccccc2O)c1	Cryptococcus neoformans	28JF	-	-	-	-	MIC99	-	5.7 µg/mL
CC[C@H]1OC(=O)[C@H](C)C(=O)[C@H](C)[C@@H](O[C@@H]2O[C@H](C)C[C@H](N(C)C)[C@H]2O)[C@@]2(C)C[C@@H](C)C(=NC(C)=O)[C@H](C)[C@@H](OC/C(=N\OCc3ccc(-c4ncccn4)s3)CO2)[C@]1(C)O	Streptococcus pneumoniae	7701 (erythromycin A-resistant)	-	-	-	-	MIC	-	<0.06 µg/mL
Cn1cc(C(=O)NCc2ccc(Cl)cc2)c(=O)c2cc(CN3CCOCC3)ccc21	Varicella zoster virus	GE varicella isolate	-	HFF	plaque count	-	inhibition	1.8 µM	90%
NCC(=O)Nc1cccc(Cn2cnc3c(N)ncnc32)c1	Coronavirus	-	-	M-HELA	plaque count	-	EC50	-	>50 µM
CCCCCCCCCCCCSC[N+](C)(C)CCCCCCCCCCCC	Staphylococcus aureus	ATCC33592	-	-	-	-	MBC	-	53.8 µM
CC[C@H]1OC(=O)[C@H](C)C(=O)[C@H](C)[C@@H](O[C@@H]2O[C@H](C)C[C@H](N(C)C)[C@H]2O)[C@@]2(C)C[C@@H](C)C(=NC(C)=O)[C@H](C)[C@@H](OC/C(=N\OCc3ccc(-c4cccc(N)n4)s3)CO2)[C@]1(C)O	Streptococcus pneumoniae	700906 (erythromycin A-resistant)	-	-	-	-	MIC	-	<0.06 µg/mL
CCCc1cc(=O)oc2cc(OC(=O)C(C)(C)C)c3c(c12)OC(C)(C)C=C3	Measles virus	Chicago-1	-	CV-1	virus yield	-	EC90	-	0.3 µg/mL
CCCCCCCCCCCC[N+](C)(C)COCCCC	Staphylococcus aureus	ATCC33592	-	-	-	-	MIC	-	4.46 µM
COc1cc(OC)c2c(=O)cc(-c3ccccc3)oc2c1CC=C(C)C	Dengue virus	Type 2/Mexican isolate	-	LLC-MK2	plaque count	-	inhibition	6 µM	10%
CC(=O)ONc1ccc(S(=O)(=O)N(CC(C)C)C[C@@H](O)[C@H](Cc2ccccc2)NC(=O)CCN2C(=O)c3ccccc3C2=O)cc1	SIV	-	-	CEM	MTT	-	EC50	-	5.2 µM
CCOP(=O)([O-])CCC(CO)OCn1cnc2c(=O)[nH]c(N)nc21	Guinea pig cytomegalovirus	22122	-	GPE	cytopathic effect	-	EC50	-	20 µg/mL
O=[N+]([O-])c1ccc(C=Nc2ccccc2O)cc1	Cryptococcus gattii	1913 ER	-	-	-	-	MIC99	-	16 µg/mL
O=C(N[C@@H](C(=O)N1CCC[C@H]1c1ncc(-c2ccc(-c3ccc(-c4cnc([C@@H]5CCCN5C(=O)[C@H](NC(=O)C5CC5)c5ccccc5)s4)cc3)cc2)s1)c1ccccc1)C1CC1	Hepatitis C virus	genotype 1b	M265V	Huh7.5	luciferase / reporter gene	-	fold resistance	-	1
C=CCc1ccc(O)c(OC)c1	Candida tropicalis	2829	-	-	turbidity	-	MIC90	-	500 µg/mL
CCOC(=O)c1c(C)nc(NCCCCNc2ccnc3cc(Cl)ccc23)nc1-c1ccccc1	Cryptococcus gattii	ATCC 24065	-	-	-	-	MIC99	-	8 µg/mL
CC(C)C1=C2[C@H]3CC[C@@H]4[C@@]5(C)CC[C@H](OC(=O)CC(C)(C)C(=O)O)C(C)(C)[C@@H]5CC[C@@]4(C)[C@]3(C)CC[C@@]2([C@@H](O)CN(CCN(C)C)Cc2ccc(Cl)cc2)CC1=O	SIV	MAC251	-	CEM-SS + MAGIC-5A	syncytia / visual reading / single cycle	-	EC50	-	0.1 µM
OC[C@H]1O[C@@H](n2c(Br)nc3cc(Cl)c(Cl)cc32)[C@H](O)[C@@H]1O	Human cytomegalovirus	TOWNE	-	-	virus yield	-	EC95	-	0.18 µM
Nc1nc2c(ncn2COC(CO)CO)c(=O)[nH]1	Cytomegalovirus	-	-	HEL	-	-	inhibition	0.3 µM	46%
CCOP(=O)([O-])CCCOCn1cnc2c(=O)[nH]c(N)nc21	Guinea pig cytomegalovirus	22122	-	GPE	cytopathic effect	-	EC50	-	50 µg/mL
CC[C@H]1OC(=O)[C@H](C)C(=O)[C@H](C)[C@@H](O[C@@H]2O[C@H](C)C[C@H](N(C)C)[C@H]2O)[C@@]2(C)C[C@@H](C)C(=NC(C)=O)[C@H](C)[C@@H](OC/C(=N/OCc3ccc(-c4cccc(N)n4)s3)CO2)[C@]1(C)O	Streptococcus pneumoniae	49619 (erythromycin A-susceptible)	-	-	-	-	MIC	-	<0.06 µg/mL
Fc1ccc(-n2c(=S)oc3ccc(Br)cc3c2=S)cc1	Mycobacterium kansasii	My 235/80	-	-	-	14 d	MIC	-	8 µM
COc1ccc(Cc2cn(Cc3ccc(O)cc3)c(/N=C3/NC(=O)N(C)C3=O)n2)cc1	Saccharomyces cerevisiae	ATCC 18824	-	-	-	-	MIC	-	>100 µg/mL
CC(C)(O)c1cn(-c2cccc([N+](=O)[O-])c2)nn1	Candida parapsilosis	URM 4261	-	-	broth dilution	-	inhibition	2048 µg/mL	0%
CCC[C@H](O)C[C@@H]1CC[C@H](C)CCCCC(=O)N(C)[C@@H](Cc2ccc(OCCO)cc2)C(=O)O1	Saccharomyces cerevisiae	ERG24	-	-	-	-	MIC	-	12.5 µg/mL
CC(=O)N[C@H]1[C@H]([C@H](O)[C@H](O)CO)OC(C(=O)O)=C[C@@H]1N=C(N)N	Influenza A virus	Influenza A/Victoria/3/75 (H3N2)	-	MDCK	-	-	EC50	-	0.41 µM
CCCCCCCCCCCC[N+](C)(C)COCC(C)CC	Staphylococcus aureus	ATCC 6538	-	-	-	-	MBC	-	8.57 µM
CCC(CC)O[C@@H]1C=C(C(=O)O)C[C@H](N)[C@H]1NC(C)=O	Influenza A virus	H1N1 isolate C9D	-	MDCK	plaque count	-	EC50	-	0.7 µg/mL
CC1CCC(C(=O)N(c2cc(C#CC(C)(C)C)sc2C(=O)O)C2CCC(O)CC2)CC1	Hepatitis C virus	Con1 (gt 1b)	L419S	Huh7	luciferase	-	fold resistance	-	346.9
CCCCCCCCCCCC[N+](C)(C)COC(C)CCCCCC	Staphylococcus aureus	ATCC 6538	-	-	-	-	MIC	-	1.53 µM
CC(=O)ONc1ccc(S(=O)(=O)N(CC(C)C)C[C@@H](O)[C@H](Cc2ccccc2)NC(=O)[C@H](C)N2C(=O)c3ccccc3C2=O)cc1	SIV	-	-	CEM	MTT	-	EC50	-	2 µM
O=C(NCc1ccc(Cl)cc1)c1c[nH]c2ccc(C#CCO)cc2c1=O	Mouse cytomegalovirus	-	-	-	plaque count	-	EC50	-	1.3 µM
Nc1ncnc2c1ncn2Cc1cccc(NC(=O)C(N)Cc2ccccc2)c1	Coronavirus	-	-	M-HELA	plaque count	-	EC50	-	>50 µM
Oc1ccc(O)c(C=Nc2ccccc2O)c1	Cryptococcus neoformans	27JF	-	-	-	-	MIC99	-	11.3 µg/mL
O=c1cc(CO)occ1O	Aspergillus fumigatus	UAB680	-	-	agar	-	MIC99	-	>12800 µM
Oc1ccccc1N=Cc1ccc(F)cc1	Cryptococcus neoformans	WP	-	-	-	-	MIC99	-	8 µg/mL
O=c1[nH]c(=O)n([C@H]2C[C@H](O)[C@@H](CO)O2)cc1I	Herpes simplex virus 1	WOL	-	-	-	-	MIC	-	1.1 µg/mL
CC(=O)ONc1ccc(S(=O)(=O)N(CC(C)C)C[C@@H](O)[C@H](Cc2ccccc2)NC(=O)CN2C(=O)c3ccccc3C2=O)cc1	SIV	-	-	CEM	MTT	-	EC50	-	2 µM
CC(C)(O)c1cn(-c2cccc3ccccc23)nn1	Candida parapsilosis	URM 4804	-	-	broth dilution	-	inhibition	2048 µg/mL	0%
Nc1nc(Cl)nc2c1ncn2[C@@H]1O[C@H](CO)[C@@H](O)[C@H]1O	Maedi-visna virus	-	-	-	cytopathic effect	-	EC50	-	0.15 µM
O=C(O)c1cc(-n2cccc2)ccc1Cl	HIV-1	RF X4 CLADE B	-	MT-2	p24	-	EC90	-	8.73 µM
CC(C)(O)c1cn(-c2ccccc2)nn1	Candida parapsilosis	ATCC 22019	-	-	broth dilution	-	inhibition	2048 µg/mL	0%
CCCc1cc(=O)oc2cc(OC(=O)CC)c3c(c12)OC(C)(C)C=C3	Measles virus	Chicago-1	-	CV-1	virus yield	-	EC90	-	2 µg/mL
CCCCCCCCCCCC[N+](C)(C)COC(CCC)CCC	Staphylococcus aureus	ATCC33592	-	-	-	-	MBC	-	6.61 µM
CC(C)CC(N)C(=O)Nc1ccc(Cn2cnc3c(N)ncnc32)cc1	Coronavirus	-	-	M-HELA	plaque count	-	EC50	-	>50 µM
O=c1oc2ccc(Cl)cc2c(=S)n1-c1cccc(F)c1	Mycobacterium kansasii	My 235/80	-	-	-	21 d	MIC	-	16 µM
CN(C)c1ncnc2c1ncn2Cc1ccc(NC(=O)C(Cc2ccccc2)NC(=O)OCc2ccccc2)cc1	Coronavirus	-	-	M-HELA	plaque count	-	EC50	-	>50 µM
OC[C@H]1O[C@@H](n2cnc3c(NC4CCCCCC4)nc(Cl)nc32)[C@H](O)[C@@H]1O	Maedi-visna virus	-	-	-	cytopathic effect	-	EC50	-	0.15 µM
COc1ccc2oc(=S)n(-c3ccc(F)cc3)c(=S)c2c1	Mycobacterium kansasii	6509/96	-	-	-	21 d	MIC	-	16 µM
CCCc1cc(=O)oc2cc(OS(=O)(=O)c3ccc(C)cc3)cc(OS(=O)(=O)c3ccc(C)cc3)c12	Measles virus	Chicago-1	-	CV-1	cytopathic effect	-	EC50	-	1 µg/mL
CCCCCCCCCCCC[N+](C)(C)CSCCCC	Staphylococcus aureus	ATCC33592	-	-	-	-	MBC	-	14.2 µM
CC[C@H]1OC(=O)[C@@](C)(F)C(=O)[C@H](C)[C@@H](O[C@@H]2O[C@H](C)C[C@H](N(C)C)[C@H]2O)[C@@]2(C)C[C@@H](C)C(=NC(C)=O)[C@H](C)[C@@H](OC/C(=N\OCc3cccc(C(N)=O)c3)CO2)[C@]1(C)O	Streptococcus pneumoniae	49619 (erythromycin A-susceptible)	-	-	-	-	MIC	-	<0.06 µg/mL
Nc1ccn(C[C@@H](CO)OCP(=O)(O)O)c(=O)n1	Guinea pig cytomegalovirus	-	-	HFF	plaque count	-	EC50	-	1.6 µM
CCCCCCCCCCCC[N+](C)(C)CSCCCCC	Staphylococcus aureus	ATCC33592	-	-	-	-	MBC	-	13.7 µM
OC[C@H]1O[C@@H](n2c(Br)nc3cc(Cl)c(Cl)cc32)[C@H](O)[C@@H]1O	Guinea pig cytomegalovirus	-	-	HFF	plaque count	-	EC50	-	2 µM
CCCc1cc(=O)oc2cc(OS(=O)(=O)c3ccc(C)cc3)cc(O)c12	Measles virus	Chicago-1	-	CV-1	virus yield	-	EC50	-	<3 µg/mL
CCOC(=O)c1c(C)nc(NCCCCNc2ccnc3cc(Cl)ccc23)nc1-c1ccccc1[N+](=O)[O-]	Cryptococcus gattii	29/10893	-	-	-	-	MIC99	-	4 µg/mL
Cc1ccc(-n2cc(C(C)(C)O)nn2)cc1C	Candida parapsilosis	ATCC 22019	-	-	broth dilution	-	inhibition	2048 µg/mL	0%
CC[C@H]1OC(=O)[C@H](C)[C@@H](O[C@H]2C[C@@](C)(OC)[C@@H](O)[C@H](C)O2)[C@H](C)[C@@H](O[C@H]2O[C@@H](C)C[C@@H](N(C)C)[C@@H]2O)[C@](C)(O)C[C@@H](C)C(=O)[C@H](C)[C@@H](O)[C@]1(C)O	Streptococcus pneumoniae	700906 (erythromycin A-resistant)	-	-	-	-	MIC	-	>64 µg/mL
CCCCCCCCCCCC[N+](C)(C)COCCC	Staphylococcus aureus	ATCC33592	-	-	-	-	MBC	-	3.1 µM

For reference, 4 entries again:

smiles,organism,strain,changes,cells,read by,conditions,endpoint,dose,value
CCOP(=O)([O-])CCCOCn1cnc2c(=O)[nH]c(N)nc21,Guinea pig cytomegalovirus,22122,-,GPE,cytopathic effect,-,EC50,-,50 µg/mL
CC1CCC(C(=O)N(c2cc(C#CC(C)(C)C)sc2C(=O)O)C2CCC(O)CC2)CC1,Hepatitis C virus,Con1 (gt 1b),L419S,Huh7,luciferase,-,fold resistance,-,346.9
CCC[C@H](O)C[C@@H]1CC[C@H](C)CCCCC(=O)N(C)[C@@H](Cc2ccc(OCCO)cc2)C(=O)O1,Saccharomyces cerevisiae,ERG24,-,-,-,-,MIC,-,12.5 µg/mL
CCCCCCCCCCCC[N+](C)(C)COC(C)CCCCCC,Staphylococcus aureus,ATCC 6538,-,-,-,-,MIC,-,1.53 µM

Fold resistance has wild type as its base. ECn: concentration that inhibits the pathogen or its effect by n%. MIC50, MIC90 and the like: level of inhibition, or share of isolates inhibited. An empty or dashed field is not shown. Conditions beyond the fields shown may differ between rows.